Measured values as given in PMC13347698 (Analytical Chemistry, 2026).

Molecular target: wild-type 3CL^pro (Severe acute respiratory syndrome coronavirus 2, UniProt P0DTD1)
Type: binding, SARS-CoV-2

O=C(Nc1ccc(N(Cc2ccsc2)C(=O)Cn2nnc3ccccc32)cc1)C1CC1 [ML300]
ΔG: -7.0 kcal mol -1 | ΔH: -9.6 ± 0.2 kcal mol -1 | ΔS: -8.6 cal mol -1 K-1
